Results from PubChem BioAssay AID1272365 (Small Molecule Screening Facility, UW Madison, 2020).
The list shows a part of the results, in another mix than the full data. Activity calls are given as the source filed them. Rule as the data show it: active = inhibition mostly above about 37% (no sharp cut-off); inactive = mostly below about 20%.

The compounds below were run on PriA–SSB C-terminal tail interaction (Klebsiella pneumoniae) (assay: blocks PriA binding to SSB C-terminal tail, primary screen, biochemical, AlphaScreen (AID 1272365;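 also: plate controls were negative control peptide for no effect and reference peptide for full effect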)). Settings: AlphaScreen SSBct-PriA binding, biotinylated peptide; at 33 µM; stronger effect = higher value.

**Q.** How did the inhibition turn out when COc1cc(C(=O)NCC2(N3CCCCC3)CCCCC2)ccc1OC(F)F was run?
**A.** The inhibition was inactive: 6.9%.

**Q.** With O=C(NCC1(N2CCOCC2)CCCCC1)c1cc(=O)[nH]c2ccccc12 as the compound, how does the inhibition read?
**A.** The inhibition was inactive: -22.3%.

**Q.** Which inhibition does the source give for CN1CCN(CCOC(=O)C(O)(c2ccccc2)c2ccccc2)CC1 here?
**A.** The inhibition was inactive: 3.93%.

**Q.** Which inhibition does the source give for COc1ccc(NC2CCN(C(=O)OC(C)(C)C)CC2)cc1 here?
**A.** Its inhibition is inactive: 7.48%.

**Q.** Which inhibition does the source give for CC(C)c1ccc(C(=O)NCC2(N3CCOCC3)CCCCC2)cc1 here?
**A.** Its inhibition is inactive: 4.26%.

**Q.** O=C(NCC1(N2CCCCC2)CCCCC1)c1cccc(C(F)(F)F)c1 was tested. Which inhibition did it give?
**A.** Its inhibition is inactive: -3.9%.

**Q.** N#CC1(Nc2ccccc2)CCN(CCc2ccccc2)CC1 was tested. Which inhibition did it give?
**A.** The inhibition was inactive: 4.04%.

**Q.** With CCN1CCC(Nc2ccc(Cl)cc2)CC1 as the compound, how does the inhibition read?
**A.** The inhibition was inactive: -10.2%.

**Q.** Which inhibition does the source give for CSc1ccc(C(=O)NCC2(N3CCOCC3)CCCCC2)cc1 here?
**A.** The inhibition was inactive: -6.28%.

**Q.** With O=C(NCC1(N2CCCCC2)CCCCC1)c1cccc([N+](=O)[O-])c1 as the compound, how does the inhibition read?
**A.** Its inhibition is inactive: -8.38%.

**Q.** O=C(NCC1(N2CCCCC2)CCCCC1)c1ccc(OC(F)F)cc1 was tested. Which inhibition did it give?
**A.** Its inhibition is inactive: -4.78%.

**Q.** CCCOc1ccc(C(=O)NCC2(N(C)C)CCCCC2)cc1OC was tested. Which inhibition did it give?
**A.** Its inhibition is inactive: -18.7%.

**Q.** O=C(NCC1(N2CCCCC2)CCCCC1)c1cncc(Br)c1 was tested. Which inhibition did it give?
**A.** Its inhibition is inactive: -10.6%.

**Q.** For CN1CCC(Nc2cccc(F)c2)CC1, which inhibition is on record?
**A.** Its inhibition is inactive: -10.4%.

**Q.** Which inhibition does the source give for O=C(NCC1(N2CCOCC2)CCCCC1)c1cc(F)c(F)cc1Cl here?
**A.** The inhibition was inactive: 1.52%.

**Q.** With COc1cc(OC)c(C(=O)NCC2(N(C)C)CCCCC2)cc1OC as the compound, how does the inhibition read?
**A.** The inhibition was inactive: 2.88%.

**Q.** Which inhibition does the source give for CC(C)c1ccc(NC2CCN(C(=O)OC(C)(C)C)CC2)cc1 here?
**A.** The inhibition was inactive: 27.1%.

**Q.** Which inhibition does the source give for CN(C)c1cccc(C(=O)NCC2(N3CCCCC3)CCCCC2)c1 here?
**A.** The inhibition was inactive: -6.5%.

**Q.** With COc1ccc(CN(CCCl)CCCl)cc1Cl as the compound, how does the inhibition read?
**A.** The inhibition was inactive: -7.85%.

**Q.** With COc1ccc(Cl)cc1C(=O)NCC1(N2CCOCC2)CCCCC1 as the compound, how does the inhibition read?
**A.** Its inhibition is inactive: -4.16%.

**Q.** O=C(OC1CN2CCC1CC2)C1c2ccccc2Oc2ccccc21 (stereo not drawn) was tested. Which inhibition did it give?
**A.** Its inhibition is inactive: 0.68%.

**Q.** How did the inhibition turn out when N#CC1(Nc2ccccc2)CCN(Cc2ccccc2)CC1 was run?
**A.** Its inhibition is inactive: -18.6%.

**Q.** How did the inhibition turn out when O=C(NCC1(N2CCCCC2)CCCCC1)c1ccc(Cl)s1 was run?
**A.** Its inhibition is inactive: -3.54%.

**Q.** With CCOC(=O)N1CCC(Nc2ccc(OC)cc2)CC1 as the compound, how does the inhibition read?
**A.** Its inhibition is inactive: -3.35%.

**Q.** For Cc1cc(C)cc(N(C(=O)c2ccccc2)C2CCN(C(=O)OC(C)(C)C)CC2)c1, which inhibition is on record?
**A.** Its inhibition is inactive: -0.69%.

**Q.** How did the inhibition turn out when O=C(NCC1(N2CCCCC2)CCCCC1)c1ccc(Cl)nc1 was run?
**A.** Its inhibition is inactive: -2.45%.

**Q.** How did the inhibition turn out when O=C(NCC1(N2CCOCC2)CCCCC1)c1cc2ccccc2o1 was run?
**A.** The inhibition was inactive: -12.2%.

**Q.** Cc1cccc(NC2(C#N)CCN(Cc3ccccc3)CC2)c1 was tested. Which inhibition did it give?
**A.** The inhibition was inactive: -9.36%.

**Q.** For CSc1ccccc1C(=O)NCC1(N2CCCCC2)CCCCC1, which inhibition is on record?
**A.** The inhibition was inactive: 4.51%.

**Q.** How did the inhibition turn out when COc1ccc(C(=O)NCC2(N3CCCCC3)CCCCC2)c(OC)c1OC was run?
**A.** The inhibition was inactive: -8.75%.

**Q.** CC(C)(C)OC(=O)N1CCC(N(C(=O)c2ccccc2)c2ccc(F)cc2)CC1 was tested. Which inhibition did it give?
**A.** Its inhibition is inactive: -1.31%.

**Q.** For COc1ccc(C(=O)NCC2(N3CCCCC3)CCCCC2)cc1, which inhibition is on record?
**A.** The inhibition was inactive: -2.5%.

**Q.** For O=C(NCC1(N2CCCCC2)CCCCC1)c1cccs1, which inhibition is on record?
**A.** The inhibition was inactive: 7.94%.

**Q.** Which inhibition does the source give for O=C(NCC1(N2CCCCC2)CCCCC1)c1ccc(=O)[nH]c1 here?
**A.** The inhibition was inactive: -6.05%.

**Q.** COc1cc(C(=O)NCC2(N(C)C)CCCCC2)ccc1OC(F)F was tested. Which inhibition did it give?
**A.** Its inhibition is inactive: -2.45%.

**Q.** CCOC(=O)N1CCC(Nc2cccc(C)c2)CC1 was tested. Which inhibition did it give?
**A.** Its inhibition is inactive: 15%.

**Q.** Which inhibition does the source give for COc1ccc(NC2CCN(CCc3ccccc3)CC2)c(OC)c1 here?
**A.** Its inhibition is inactive: 24.2%.

**Q.** Which inhibition does the source give for CCOC(=O)N1CCC(Nc2ccc(F)cc2)CC1 here?
**A.** The inhibition was inactive: -0.77%.

**Q.** With O=C(NCC1(N2CCCCC2)CCCCC1)c1ccc(F)cc1 as the compound, how does the inhibition read?
**A.** The inhibition was inactive: -3.16%.

**Q.** O=P1(N(CCCl)CCCl)SCCCS1 was tested. Which inhibition did it give?
**A.** The inhibition was inactive: -8.68%.

**Q.** CCCCOc1ccc(C(=O)NCC2(N3CCOCC3)CCCCC2)cc1 was tested. Which inhibition did it give?
**A.** Its inhibition is inactive: -9.09%.

**Q.** O=C1CCN(Cc2ccccc2)CC1 was tested. Which inhibition did it give?
**A.** Its inhibition is inactive: -17.8%.

**Q.** For CCOc1ccc(C)cc1CN(CCCl)CCCl, which inhibition is on record?
**A.** The inhibition was inactive: -8.76%.

**Q.** Which inhibition does the source give for Cn1c(=O)[nH]cc(N(CCCl)CCCl)c1=O here?
**A.** Its inhibition is inactive: -3%.

**Q.** CN(C)c1ccc(C(=O)NCC2(N3CCCCC3)CCCCC2)cc1 was tested. Which inhibition did it give?
**A.** Its inhibition is inactive: -0.62%.

**Q.** O=C(NCC1(N2CCCCC2)CCCCC1)c1ccco1 was tested. Which inhibition did it give?
**A.** Its inhibition is inactive: -2.5%.

**Q.** For CCN1CCC(Nc2cccc(F)c2)CC1, which inhibition is on record?
**A.** Its inhibition is inactive: -3.11%.

**Q.** How did the inhibition turn out when Cc1ccccc1NC1(C#N)CCN(Cc2ccccc2)CC1 was run?
**A.** The inhibition was inactive: -3.7%.

**Q.** How did the inhibition turn out when Fc1ccccc1NC1CCN(Cc2ccccc2)CC1 was run?
**A.** Its inhibition is inactive: -13.2%.

**Q.** With Cc1ccc(C(=O)NCC2(N3CCCCC3)CCCCC2)o1 as the compound, how does the inhibition read?
**A.** Its inhibition is inactive: 4.76%.

**Q.** How did the inhibition turn out when Cc1ccc(NC2(C#N)CCN(Cc3ccccc3)CC2)cc1 was run?
**A.** The inhibition was inactive: -6.39%.

**Q.** For CC(=O)N(c1ccccc1)C1CCNCC1, which inhibition is on record?
**A.** The inhibition was inactive: -9.83%.

**Q.** COc1cc(OC)cc(C(=O)NCC2(N3CCCCC3)CCCCC2)c1 was tested. Which inhibition did it give?
**A.** The inhibition was inactive: -4.49%.

**Q.** CN1CCC(Nc2ccc(Cl)cc2)CC1 was tested. Which inhibition did it give?
**A.** Its inhibition is inactive: -18.2%.

**Q.** Which inhibition does the source give for COc1cc(OC)cc(C(=O)NCC2(N3CCOCC3)CCCCC2)c1 here?
**A.** Its inhibition is inactive: -8.34%.

**Q.** For COc1cccc(C(=O)N(c2cc(C)cc(C)c2)C2CCN(C(=O)OC(C)(C)C)CC2)c1, which inhibition is on record?
**A.** Its inhibition is inactive: -5.24%.

**Q.** How did the inhibition turn out when O=C(O)C1(Nc2ccccc2)CCN(Cc2ccccc2)CC1 was run?
**A.** The inhibition was inactive: 3.03%.

**Q.** For CC(C)(C)OC(=O)N1CCC(Nc2ccccc2)CC1, which inhibition is on record?
**A.** The inhibition was inactive: -2.89%.

**Q.** For CCCOc1ccc(C(=O)NCC2(N(C)C)CCCCC2)cc1, which inhibition is on record?
**A.** Its inhibition is inactive: -1.45%.

**Q.** For CN1CCC(Nc2ccc(F)c(Cl)c2)CC1, which inhibition is on record?
**A.** Its inhibition is inactive: -9.47%.

**Q.** How did the inhibition turn out when CCOc1ncccc1C(=O)NCC1(N2CCOCC2)CCCCC1 was run?
**A.** The inhibition was inactive: -2.43%.

**Q.** How did the inhibition turn out when O=C(OC1CN2CCC1CC2)C1c2ccccc2C=Cc2ccccc21 (stereo not drawn) was run?
**A.** Its inhibition is inactive: -2.62%.

**Q.** CCc1cc(C(=O)NCC2(N3CCCCC3)CCCCC2)sc1C was tested. Which inhibition did it give?
**A.** Its inhibition is inactive: 0.57%.

**Q.** Which inhibition does the source give for CCOC(=O)N1CCC(Nc2ccc(C)cc2)CC1 here?
**A.** Its inhibition is inactive: 2.11%.

**Q.** COc1ccc(C(=O)NCC2(N3CCOCC3)CCCCC2)cc1OC was tested. Which inhibition did it give?
**A.** The inhibition was inactive: 0.64%.

**Q.** For COc1cc(C(=O)NCC2(N3CCOCC3)CCCCC2)cc(OC)c1C, which inhibition is on record?
**A.** The inhibition was inactive: -7.22%.

**Q.** O=C(NCC1(N2CCOCC2)CCCCC1)c1cc(Br)ccc1Cl was tested. Which inhibition did it give?
**A.** The inhibition was inactive: 4.18%.

**Q.** With CN(C)C1(CNC(=O)c2cccc(C#N)c2)CCCCC1 as the compound, how does the inhibition read?
**A.** The inhibition was inactive: 3.73%.

**Q.** With CCCN1CCC(Nc2cc(OC)cc(OC)c2)CC1 as the compound, how does the inhibition read?
**A.** The inhibition was inactive: 0.83%.

**Q.** With Cc1cc(N(CCCl)CCCl)ccc1C=O as the compound, how does the inhibition read?
**A.** Its inhibition is inactive: -14.7%.

**Q.** Which inhibition does the source give for c1ccc(CN2CCC(Nc3ccccc3)CC2)cc1 here?
**A.** The inhibition was inactive: 1.07%.

**Q.** Which inhibition does the source give for N#Cc1ccc(C(=O)NCC2(N3CCCCC3)CCCCC2)cc1 here?
**A.** The inhibition was inactive: -6.14%.

**Q.** Which inhibition does the source give for CC(C)(C)OC(=O)N1CCC(N(C(=O)c2ccccc2)c2ccc(Cl)cc2)CC1 here?
**A.** The inhibition was inactive: 4.24%.
